Anti-infective test results gathered from many reports (values: NIAID ChemDB through PubChem).

Shared fields: growth or infection tests; agent: Mycobacterium tuberculosis

MIC bound: limit read from a one-dose screen. ECn is the concentration giving n% inhibition of infection, replication or growth. Lines come from different laboratories, so protocols vary. A number after MIC or MFC names an inhibition level or a share of isolates. Inhibition is in % at the dose shown (toxicity tests: loss of growth or viability).

O=c1cc(-c2ccc(O)cc2-c2c(O)cc3oc(-c4ccc(O)cc4)cc(=O)c3c2O)oc2cc(O)cc(O)c12 ; strain or isolate: H37Rv ; dose: 12.5 µg/mL ; endpoint: inhibition ; value: 1%
Cc1cc(Cl)cc2c1C(=Nc1ccccc1)CS2 ; strain or isolate: H37Rv ; endpoint: MIC ; value: 50 µg/mL
CCCCn1cnc2ccc3nc(-c4ccccc4)c(-c4ccccc4)nc3c2c1=O ; strain or isolate: H37Rv ; read by: BACTEC ; endpoint: MIC bound ; value: >12.5 µg/mL
OCc1ccccc1Sc1ccccc1CNCCNCCC1=CCCCC1 ; endpoint: MIC ; value: 12.5 µM
CCOCCCNCCNCCC(c1ccccc1)c1ccccc1 ; endpoint: MIC ; value: 25 µM
Cc1c(Cc2c(C)n(C)n(-c3ccccc3)c2=O)c(=O)n(-c2ccccc2)n1C ; strain or isolate: H37Rv ; endpoint: MIC ; value: >100 µg/mL
CO[C@H]1/C=C/O[C@@]2(C)Oc3c(C)c(O)c4c(=O)c(c5oc6cc(N7CCN(C(C)C)CC7)cc(=O)c6nc5c4c3=C2O)NC(=O)/C(C)=C\C=C\[C@H](C)[C@H](O)[C@@H](C)[C@@H](O)[C@@H](C)[C@H](OC(C)=O)[C@@H]1C ; strain or isolate: 27 (rifampin-resistant) ; endpoint: MIC ; value: 0.1 µg/mL
CC(C)N(CN1C(=O)N/C(=C\c2cccc(/C=C3/NC(=O)N(CN(C(C)C)C(C)C)C3=O)c2)C1=O)C(C)C ; strain or isolate: H37Rv ; read by: BACTEC ; endpoint: MIC bound ; value: >12.5 µg/mL
C=CCNc1nc(NC(=O)OCC)cc(N)c1[N+](=O)[O-] ; strain or isolate: H37Rv ; endpoint: EC50 ; value: >12.5 µg/mL
CN(C)C(=O)CCCCCCCCC(=O)N(C)C ; strain or isolate: H37Rv ; endpoint: MIC ; value: >100 µg/mL
C[C@@H]1CC[C@H](C(C)(C)O)CC2=C1CC[C@H]2C ; strain or isolate: H37Rv ; read by: BACTEC ; endpoint: MIC bound ; value: >128 µg/mL
C[C@H]1COc2c(N3CCN(C)CC3)c(F)cc3c(=O)c(C(=O)O)cn1c23 ; strain or isolate: ATCC 35827 ; endpoint: MIC ; value: 0.25 µg/mL
CCc1c2c(nc3ccc(OC(=O)N4CCC(N5CCCCC5)CC4)cc13)-c1cc3c(c(=O)n1C2)COC(=O)[C@]3(O)CC.Cl ; strain or isolate: H37Rv ; dose: 12.5 µg/mL ; read by: BACTEC ; endpoint: inhibition ; value: 0%
Nc1ccc(I)cc1C(=O)O ; strain or isolate: H37Rv ; endpoint: MIC ; value: >100 µg/mL
C[C@@H]1CN(c2c(F)c(N)c3c(=O)c(C(=O)O)cn(C4CC4)c3c2F)C[C@H](C)N1 ; strain or isolate: ATCC35838 ; endpoint: MBC ; value: 0.6 µg/mL
O=C(O)CCCCCCCCCCCCCCCCCc1cccc(Cl)c1 ; strain or isolate: H37Rv ; endpoint: MIC ; value: 50 µg/mL
CCOC(=O)Nc1cc2[nH]c(=O)c(-c3ccccc3)nc2c(NC(c2ccccc2)c2ccccc2)n1 ; strain or isolate: H37Rv ; endpoint: EC50 ; value: >12.5 µg/mL
CC(C)N1CCC2(CC1)NNc1ncccc1-n1cccc12.Cl.Cl ; strain or isolate: H37Rv ; dose: 12.5 µg/mL ; read by: BACTEC ; endpoint: inhibition ; value: 0%
CCCCC(CC)CN1CN(CC(CC)CCCC)CC(C)(NCCNCCCc2ccccc2)C1 ; endpoint: MIC ; value: 25 µM
O=C1C(Cl)=C(Cl)C(=O)c2ccccc21 ; strain or isolate: H37Rv ; endpoint: MIC ; value: 25 µg/mL
C1=C(CCNCCNCC(c2ccccc2)c2ccccc2)CCCC1 ; endpoint: MIC ; value: 25 µM
CCOCC(=O)[O-].CCOCC(=O)[O-].O.[Ca+2] ; strain or isolate: H37Rv ; endpoint: MIC ; value: >100 µg/mL
CC[C@H]1OC(=O)[C@H](C)[C@@H](O[C@H]2C[C@@](C)(OC)[C@@H](O)[C@H](C)O2)[C@H](C)[C@@H](O[C@@H]2O[C@H](C)C[C@H](N(C)C)[C@H]2O)[C@](C)(O)C[C@@H](C)CN(C)[C@H](C)[C@@H](O)[C@]1(C)O ; strain or isolate: H37Rv ; endpoint: MIC ; value: >8 µg/mL
C[C@@H](NCCNCCC(c1ccccc1)c1ccccc1)C1CCCCC1 ; endpoint: MIC ; value: 6.25 µM
CCOC(=O)Nc1cc2c(c(N)n1)N=C(c1ccccc1)[C@@H](CC)N2 ; strain or isolate: H37Rv ; dose: 12.5 µg/mL ; endpoint: inhibition ; value: 0%
O=C(O)c1ccc2c(c1)C(=O)CC(c1ccccc1)O2 ; dose: 12.5 µg/mL ; endpoint: inhibition ; value: 0%
CCOC(=O)Nc1cc2[nH]cnc2c(NC(=O)OCC)n1 ; strain or isolate: H37Rv ; endpoint: EC50 ; value: >12.5 µg/mL
[Na+].[O-]N=Nc1nc(-c2ccccn2)nc2ccccc12 ; strain or isolate: H37Rv ; read by: BACTEC ; endpoint: MIC bound ; value: >12.5 µg/mL
O=C(/C=C/c1ccncc1)c1ccco1 ; strain or isolate: H37Rv ; endpoint: EC50 ; value: >12.5 µg/mL
C[C@H]1C[C@H](N)CN1c1cc2c(cc1F)c(=O)c(C(=O)O)cn2-c1ccc(F)cc1F ; strain or isolate: ATCC 35820 ; endpoint: MIC ; value: 1 µg/mL
COc1ccc(/C=C/C(=O)c2ccc(OC)cc2O)cc1 ; strain or isolate: H37Rv ; endpoint: EC50 ; value: >12.5 µg/mL
CCCCC(=O)Oc1ccc(C2=Nc3c(cc(NC(=O)OCC)nc3N)N[C@H]2C)cc1 ; strain or isolate: H37Rv ; endpoint: EC50 ; value: >12.5 µg/mL
c1ccc(CCCCNCCNCCCc2ccccc2)cc1 ; endpoint: MIC ; value: 25 µM
c1ccc(-c2cccc(-c3ccccc3)n2)cc1 ; strain or isolate: H37Rv ; endpoint: MIC ; value: >100 µg/mL
CCCCCCCCCCCNCCNCC(c1ccccc1)c1ccccc1 ; endpoint: MIC ; value: 12.5 µM
CCN(CC)c1ccc2nc3c4ccccc4c(=NC(=O)c4ccccc4-c4c5ccc(N(CC)CC)cc5[o+]c5cc(N(CC)CC)ccc45)cc-3oc2c1.[Cl-] ; strain or isolate: KM-R ; endpoint: MIC ; value: 0.8 µg/mL
COc1ccc2nc(N3CCOCC3)ccc2c1 ; strain or isolate: H37Rv ; endpoint: MIC ; value: 100 µg/mL
Cc1cc(NC(=O)c2ccc(N)cc2)ccc1N=Nc1ccc2c(O)c(N=Nc3ccc4cc(S(=O)(=O)O)ccc4c3)c(S(=O)(=O)O)cc2c1 ; strain or isolate: H37Rv ; read by: BACTEC ; endpoint: MIC bound ; value: >12.5 µg/mL
NCC[C@H](O)C(=O)N[C@@H]1C[C@H](N)[C@@H](O[C@H]2O[C@H](CN)[C@@H](O)[C@H](O)[C@H]2O)[C@H](O)[C@H]1O[C@H]1O[C@H](CO)[C@@H](O)[C@H](N)[C@H]1O ; strain or isolate: TN3360 (W) ; endpoint: MIC ; value: >256 µg/mL
CSC(=S)NN=C(c1ccccn1)c1ccccn1 ; strain or isolate: H37Rv ; read by: BACTEC ; endpoint: MIC bound ; value: ≤128 µg/mL
O=C(O)[C@@H](O)[C@@H](O)[C@H](O)[C@@H](O)C(=O)O ; strain or isolate: H37Rv ; endpoint: MIC ; value: >100 µg/mL
COc1ccc(C(=O)/C=C/c2ccncc2)cc1 ; strain or isolate: H37Rv ; endpoint: EC50 ; value: >12.5 µg/mL
COc1ccc(CNCCNCCc2ccc(Cl)cc2Cl)c(OC)c1 ; endpoint: MIC ; value: 50 µM
CO[C@H]1/C=C/O[C@@]2(C)Oc3c(C)c(O)c4c(O)c(c(/C=N/N5CCN(C/C=C/c6ccccc6)CC5)c(O)c4c3C2=O)NC(=O)/C(C)=C\C=C\[C@H](C)[C@H](O)[C@@H](C)[C@@H](O)[C@@H](C)[C@H](OC(C)=O)[C@@H]1C ; strain or isolate: 3147 (rifampin-sensitive) ; endpoint: MIC ; value: 0.025 µg/mL
C=CC12CN(C)C3C4COC(CC41)C1(C(=O)Nc4ccccc41)C32.CC(C)=O ; strain or isolate: H37Rv ; read by: BACTEC ; endpoint: MIC bound ; value: >12.5 µg/mL
CCOC(=O)Nc1ccc(C(=O)Nc2ccccc2)c(O)c1 ; strain or isolate: H37Rv ; endpoint: MIC ; value: >100 µg/mL
O=C1OCc2cccc3c2-c2c1cccc2C(=O)OC3 ; strain or isolate: H37Rv ; read by: BACTEC ; endpoint: MIC bound ; value: >12.5 µg/mL
Nc1ccc(O)c(C(=O)/C=C/c2ccccc2)c1 ; endpoint: EC50 ; value: >12.5 µg/mL
CC(C)=CCC/C(C)=C/CNCCN[C@H]1C[C@H]2CC[C@]1(C)C2(C)C ; endpoint: MIC ; value: 12.5 µM
CC(C)CC(C)NCCNCCc1ccccc1 ; endpoint: MIC ; value: 50 µM
CSC(=S)N(C)c1nc(=[N+](C)C)ss1.O=S(=O)([O-])F ; strain or isolate: H37Rv ; read by: BACTEC ; endpoint: MIC ; value: ≥128 µg/mL
N#CCc1cccc2ccccc12 ; strain or isolate: H37Rv ; endpoint: MIC ; value: >100 µg/mL
O=C1CC(c2ccccc2)Oc2cc(F)ccc21 ; strain or isolate: H37Rv ; endpoint: EC50 ; value: >12.5 µg/mL
CN(C)c1ccc(C(=O)c2ccc(N(C)C)cc2)cc1 ; strain or isolate: H37Rv ; endpoint: MIC ; value: 50 µg/mL
O=c1c2ccccc2oc2c(Cl)cc(Cl)cc12 ; strain or isolate: H37Rv ; dose: 12.5 µg/mL ; read by: BACTEC ; endpoint: inhibition ; value: 0%
CC(C)C[C@@H](CO)NCCNC[C@]1(C)CCC[C@]2(C)c3ccc(C(C)C)cc3CC[C@@H]12 ; endpoint: MIC ; value: 25 µM
NCC[C@H](O)C(=O)N[C@@H]1C[C@H](N)[C@@H](O[C@H]2O[C@H](CN)[C@@H](O)[C@H](O)[C@H]2O)[C@H](O)[C@H]1O[C@H]1O[C@H](CO)[C@@H](O)[C@H](N)[C@H]1O ; strain or isolate: MDR6 ; read by: broth dilution / resazurin ; endpoint: MIC ; value: 1 µg/mL
O=C(/C=C/c1cccc(O)c1)c1ccccc1O ; dose: 12.5 µg/mL ; endpoint: inhibition ; value: 18%
Nc1ccc(S(=O)(=O)NC(CS)C(=O)O)cc1 ; strain or isolate: H37Rv ; endpoint: MIC ; value: >100 µg/mL
CCC(=O)N1C(=O)C(C)C23c4cccc([N+](=O)[O-])c4C(=O)N2CCCN13 ; strain or isolate: H37Rv ; read by: BACTEC ; endpoint: MIC bound ; value: >12.8 µg/mL
CCN(CC)CC(=O)O.Cl ; strain or isolate: H37Rv ; endpoint: MIC ; value: >100 µg/mL
S=C(Nc1ccccc1)c1ccccn1 ; strain or isolate: H37Rv ; dose: 6.25 µg/mL ; read by: resazurin ; endpoint: inhibition ; value: 96%
Nc1nc(N)nc(Cc2ccccc2)n1 ; strain or isolate: H37Rv ; endpoint: MIC ; value: >100 µg/mL
CN(C)c1cc[n+](/C(NS(=O)(=O)c2cc(C(=O)Nc3cccc4nsnc34)c(Cl)cc2[S-])=C(\C#N)C(=O)c2ccc(Cl)cc2)cc1 ; strain or isolate: H37Rv ; read by: resazurin ; endpoint: MIC bound ; value: >6.25 µg/mL
Cc1cc(N(CC(N)=O)CC2CCCO2)ccc1N ; strain or isolate: H37Rv ; endpoint: MIC ; value: >100 µg/mL
CC1CO/C(=C2\C(=O)OCC2C)C1 ; strain or isolate: H37Rv ; read by: BACTEC ; endpoint: MIC bound ; value: >12.5 µg/mL
CCCCCCCCCCCNCCNCCc1ccccc1 ; endpoint: MIC ; value: 25 µM
NC1CCN(c2c(F)cc3c(=O)c(C(=O)O)cn(C4CC4)c3c2Cl)C1 ; strain or isolate: MDR ; endpoint: MIC90 ; value: 2 µg/mL
CC(=O)Oc1c(C)c(OC(C)=O)c2c(c1C(C)=O)OC1CC(=O)C(C(C)=O)=C(O)C21C ; strain or isolate: H37Rv ; read by: BACTEC ; endpoint: MIC ; value: ≥12.5 µg/mL
c1ccc(CCCNCCNCC(c2ccccc2)c2ccccc2)cc1 ; endpoint: MIC ; value: 37.5 µM
C=C(CC[C@@H](C(=O)O)[C@H]1CC[C@@]2(C)C3=C(CC[C@]12C)[C@@]1(C)CC[C@H](O)C(C)(C)[C@@H]1CC3)C(C)C ; strain or isolate: H37Rv ; dose: 12.8 µg/mL ; read by: BACTEC ; endpoint: inhibition ; value: 5%
c1ccc(-c2ccc(-c3cc(-c4ccccc4)no3)cc2)cc1 ; strain or isolate: H37Rv ; endpoint: MIC ; value: >100 µg/mL
O=C(c1ccccc1)c1c(CO[N+](=O)[O-])n([O-])c2ccccc2[n+]1=O ; strain or isolate: ETA-R ; endpoint: MIC ; value: 12.5 µg/mL
COc1cc(Cc2ccc(N)c(OC)c2)ccc1N ; strain or isolate: H37Rv ; endpoint: MIC ; value: >100 µg/mL

A second listing of 7 rows from above:

{"smiles": "COc1ccc2nc(N3CCOCC3)ccc2c1", "strain or isolate": "H37Rv", "endpoint": "MIC", "value": "100 µg/mL"}
{"smiles": "[Na+].[O-]N=Nc1nc(-c2ccccn2)nc2ccccc12", "strain or isolate": "H37Rv", "read by": "BACTEC", "endpoint": "MIC bound", "value": ">12.5 µg/mL"}
{"smiles": "OCc1ccccc1Sc1ccccc1CNCCNCCC1=CCCCC1", "endpoint": "MIC", "value": "12.5 µM"}
{"smiles": "CCOC(=O)Nc1cc2[nH]cnc2c(NC(=O)OCC)n1", "strain or isolate": "H37Rv", "endpoint": "EC50", "value": ">12.5 µg/mL"}
{"smiles": "Cc1cc(NC(=O)c2ccc(N)cc2)ccc1N=Nc1ccc2c(O)c(N=Nc3ccc4cc(S(=O)(=O)O)ccc4c3)c(S(=O)(=O)O)cc2c1", "strain or isolate": "H37Rv", "read by": "BACTEC", "endpoint": "MIC bound", "value": ">12.5 µg/mL"}
{"smiles": "O=C(/C=C/c1ccncc1)c1ccco1", "strain or isolate": "H37Rv", "endpoint": "EC50", "value": ">12.5 µg/mL"}
{"smiles": "CN(C)c1cc[n+](/C(NS(=O)(=O)c2cc(C(=O)Nc3cccc4nsnc34)c(Cl)cc2[S-])=C(\\C#N)C(=O)c2ccc(Cl)cc2)cc1", "strain or isolate": "H37Rv", "read by": "resazurin", "endpoint": "MIC bound", "value": ">6.25 µg/mL"}